Laboratory results as given in patent US20240150396A1 (The Texas A&M University System, priority 2021, published 2024).
For part of its entries the source gives two or more results. This is not the full list of results. The source may hold further records. Results that share an entry differ for a reason that is not stated; dose, time, organism, isomer or construct need not be as stated for each record.

Columns and labels:
[1] = test system: T. cruzi epimastigotes (strain Y); experiment: Growth of axenic cultures of T. cruzi epimastigotes; conditions: read-out: T. cruzi axenic culture EC50
[2] = test system: SARS-CoV-2 in Vero E6 cells; experiment: Anti-CoV-2 activity in Vero E6 cells; assay type: cell-based; conditions: read-out: Anti-CoV-2 EC50 Vero E6 Cells

SMILES | EC50 [1] | EC50 [2]
CN1CCN(C(=O)N[C@@H](Cc2ccccc2)C(=O)N[C@H](/C=C/S(=O)(=O)c2ccccc2)CCc2ccccc2)CC1 [Compound K11777, reference compound] | > 20 µM and 60 µM | –
CN1CCN(C(=O)N[C@@H](Cc2ccccc2)C(=O)N[C@H]2Cc3ccccc3OC2O)CC1 (some centres unmarked) | – | 7.5 µM and 2.5 µM to 7.5 µM
